Measured values reported in patent US20260069689A1, “ANTI-SARS-COV-2-SPIKE GLYCOPROTEIN ANTIBODIES AND ANTIGEN-BINDING FRAGMENTS” (Regeneron, published 2026).

Molecular target: SARS-COV-2 RBD extracellular domain expressed with a C-terminal myc-myc-hexahistidine tag (SARS-COV-2 RBD-mmH) (SARS-CoV-2)
Test: SPR Biacore, mAb captured on anti-hFc, RBD-mmH analyte, 37 C

B1: mAb15161 (antibody, V domains shown)
VH: EVQLVESGGGLVQPGGSLRLSCAASGFTFSSYEMNWVRQAPGKGLEWVSYISSSGSILYYADSVKGRFTASRDNAKNSLYLQMNSLRAEDTGVYYCARREYQLLRPFEFWGQGTLVTVSS
VL: not shown
- RBD monomer bound at 50 nM (RU): 61.1 RU

B2: mAb14315 (antibody, V domains shown)
VH: QVQLVQSGAEVKKPGSSVKVSCKASGDTFSTYAINWVRQAPGQGLEWMGRFIHIFGTANYAQKFQGRVTITADESTSTAYMELRSLRSEDTAVYYCARDGVDYGDYRPDYWGQGTLVTVSS
VL: EIVLTQSPGTLSLSPGERATLSCRASQSVSSNYLAWYQQKPGQAPRLLIYGASSRATGIPERFSGSGSGTDFTLTISRLEPEDFAVYYCQQYGSSLYTFGQGTKLEIKR
- RBD monomer bound at 50 nM (RU): 193 RU

B3: mAb14255 (antibody, V domains shown)
VH: QVQLQESGPGLVKPSETLSLTCTVSGGSISGYYWSWIRQPPGKGLDWIGYIYYRGNTNYNPSLKSRVTISVDTSNNQFSLKLSSVTAADTAVYYCARYGEGYGDASGYHFDYWGQGTLVTVSS
VL: QSALTQPASVSGSPGQSITISCTGTSSDVGSYNLVSWYQQHPGKAPKLMIYEDSKRPSGVANPFSGSKSGNTASLTISGLQAEDEADYYCSSYAGSSTWVFGGGTKLTVLG
- RBD monomer bound at 50 nM (RU): 206 RU

B4: mAb14285 (antibody, V domains shown)
VH: QVQLVQSGAEVKKPGASVKVSCKASGYTFTGYFIHWVRQAPGQGLEWMGWISPISGGTNYAQKFQGRVTVTRDTSITTAYMELSRLTSDDTAVYHCAREGGTWKGDFDYWGQGTLVTVSS
VL: QSALTQPASVSGSPGQSITISCTGTSSDVESYNLVSWYQQHPGKAPKLMIYEGSKRPSGVSNRFSGSKSGNTASLTISGLQAEDEADYYCSSYAGSSTWVFGGGTKLTVLG
- RBD monomer bound at 50 nM (RU): 166 RU

B5: mAb13459 (antibody, V domains shown)
VH: EVQLVESGGGLVQPGRSLRLSCAASGFTFDDYAMHWVRQAPGKGLEWVSGISWNSGSIGYADSVKGRFTISRDNAKNSLYLQMNSLRAEDTALYYCAKDIGITTPYWGQGTLVTVSS
VL: AIQMTQSPSSLSASVGDRVTITCRASQDIRNDLGWYQQKPGKAPKLLIYSASSLQTGVPSRFSGSGSGTDFTLTISSLHPEDFATYYCLQDYNYVWTFGQGTKVEIKR
- RBD monomer bound at 50 nM (RU): 299 RU

B6: mAb14280 (antibody, V domains shown)
VH: QVQLVQSGAEVKKPGASVRVSCKASGYTFTGNYIHWVRQAPGQGLEWMAWINPNSGGKNYAQKFQGRVTLTRDTSVNTAYMELSRLRSDDTAMYYCARDVNYNILTGPGGLWGQGTLVTVSS
VL: QSALTQPPSASGSPGQSVTISCTGTSSDVGGYNFVSWYQQHPGKAPKLMIYEVSKRPSGVPDRFSGSKSGNTASLTVSGLQAEDEADYYCSSYAGSNNFVFGTGTKVTVLG
- RBD monomer bound at 50 nM (RU): 176 RU

B7: mAb15163 (antibody, V domains shown)
VH: EVQLVETGGGLIQPGESLRLSCAASGFIVSTNYMNWVRQAPGKGLEWVSVIYRGGSTYYADSVKGRFTISRDNSKNTLFLQMNSLRAEDTAVYYCARGHEDFDYDTPASGAFDIWGQGTMVTVSS
VL: QSALTQPPSASGSPGQSVTISCTGTSSDVGGHNYVSWYQQHPGKAPKVMIYEVSKRPSGVPDRFSGSKSGNTASLTVSGLQAEDEADYYCSSYAGSNKFVFGTGTKVTVLG
- RBD monomer bound at 50 nM (RU): 72.7 RU

B8: mAb14230 (antibody, V domains shown)
VH: EVQLVESGGGLIQPGRSLRLSCAASGFTFDDYAMHWVRQAPGKGLEWVSGISWNSVSIDYADSVKGRFTISRDNAKNSLYLQMTSLTVEDTALYYCAKAFGYETLTGSDYFAYWGPGTLVTVSS
VL: EIVLTQSPGTLSLSPGERATLSCRASQTVISTYLAWYQQKPGQSPRLLIYGASSRATGIPDRFSGSGSGTDFTLTISRLEPEDFAVYYCQQYGSSPQLTFGGGTKVEIKR
- RBD monomer bound at 50 nM (RU): 133 RU

B9: mAb14313 (antibody, V domains shown)
VH: EVQLVESGGGLVQPGRSLRLSCVASGFTFDDSAMHWVRQPPGKGLEWVSGISWNSGIIGYAESVKGRFIISRDNAKNSLFLHMRGLRPEDTAVYYCARDRLELSYYYYGMDVWGQGTTVTVSS
VL: QSVLTQPPSASGTPGQRVTISCSGSSSNIGSNTVNWYQQFPGTAPRLLIYSNDQRPSGIPDRFSGSKSGTSASLAISGLQSEDEADYYCSTWDDSLNGAVFGGGTQLTVLG
- RBD monomer bound at 50 nM (RU): 273 RU

B10: mAb14281 (antibody, V domains shown)
VH: QVQLVQSGADVKKPGASVKVSCKTSGYIFTGYYIHWVRQAPGQGLEWMGWINPNSGGTNSAQKFQGRVTMTRDTSISTVYMELSRLRSDDTAVYYCAKSNSFSVLDYNFDYWGQGTLVTVSS
VL: SSELTQDPAVSVALGQTVRITCQGDSLRSYYASWYQQKPGQAPVLVIYDKNNRPSGIPDRFSGSSSGNTASLTITGAQAEDEADYYCNSRDSSRNHLVVFGGGTKLTVLG
- RBD monomer bound at 50 nM (RU): 182 RU

B11: mAb14247 (antibody, V domains shown)
VH: QITLKESGPTLVKPTQTLTLTCTFSGFSLSTSAVGVGWIRQPPGKALEWLALIYWDDDKRYSPSLKSRLTITKDTSKNQLVLTMTNVDPVDTATYYCAHHTIQLIFDYWGQGTLVTVSS
VL: QSALTQPASVSGSPGQSITISCTATSSDVGNYNYVSWYQQHPGKAPKLMIYEVSNRPSGVSNRFSGSKSGNTASLTISGLQAEDEADYYCSSYTSSSTPLVFGGGTKLTVLG
- RBD monomer bound at 50 nM (RU): 91.2 RU

B12: mAb14292 (antibody, V domains shown)
VH: EVQLVESGGGLVQPGGSLRLSCVASGFAFSTYEMNWVRQAPGKGLEWVSYISSSGSTIYYADSVKGRLTISRDNVKNSLYLQMNSLRVEDTAIYYCARDAIRNNDILTDPATFDPWGQGTLVTVSS
VL: not shown
- RBD monomer bound at 50 nM (RU): 10.4 RU

B13: mAb14282 (antibody, V domains shown)
VH: QVQLVQSGAEVKKPGASVKVSCKASGYIFTDHYMHWVRQAPGQGLEWMGWINPNSGATNYAQNFQGRVTMTRDTSIITVYMELSRLRSDDTAVYYCARDSSPYMIRYTMDVWGQGTTITVSS
VL: QSALTQPASVSGSPGQSITISCTGTSSDVGSYNLVSWYQQHPGKAPKLMIYELTKRPSGVSNRFSGSKSGNTASLTISGLQAEDEADYYCSSYRGSVTDVVFGGGTKLTVLG
- RBD monomer bound at 50 nM (RU): 186 RU

B14: mAb15157 (antibody, V domains shown)
VH: EVQLVESGGALVQPGGSLRLSCAASGFPFTIYAMTWVRQAPGKGLEWVSVITGSGDSTYYADSVKGRFTISRDNSKNTLYLQMNSLRAEDTAVYYCVKTGEGFFYYYYGMDVWGQGTTVTVSS
VL: QSVLTQPPSVSAAPGQKVTISCSGSSSNIGNSYISWYQQLPGTAPKLLIYVNNKRPSGIPDRFSGSKSGTSATLGITGLQTGDEADYYCGTWDSSLSAGVFGSGTKVTVLG
- RBD monomer bound at 50 nM (RU): 65.7 RU

B15: mAb15156 (antibody, V domains shown)
VH: QLQLQESGPGLVKSSETLSLTCTVSASITGSTYYWGWIRQPPGKGLEWIGSIYYSGTTYYKASLKSRVTISVDTSKNQFSLKLTSVTVADTAVYYCVSHLLGNYHKYGMDVWGQGTTVTVSS
VL: QSVLTQPPSASGTPGQRVTISCSGSRSNIGINTVNWYQQFPGTALNLLIFSDNQRPSGVPDRFSGSKSGTSASLAISGLQSEDEADYYCAAWDDSLNGPDWVFGGGTKLTVLG
- RBD monomer bound at 50 nM (RU): 107 RU

B16: mAb14257 (antibody, V domains shown)
VH: EVQLVESGGGLVQPGGSLRLSCAASGFTVSRSYMNWVRQAPGKGLEWVSVVFTGGTTKHTDSVKGRFTISRDNSMNTLYLQMNSLRPEDTAVYYCARVAIVETTGAFDIWGQGTMVTVSS
VL: QSVLTQPPSVSGAPGQRVTISCTGTSSNIGADFDVHWYQQFPGTAPKLLIYGHTNRPSGIPDRFSGSKSGTSASLAITGLQAEDEADYYCQSYDSSLSGSVVFGGGTKLTVLG
- RBD monomer bound at 50 nM (RU): 242 RU

B17: mAb15162 (antibody, V domains shown)
VH: EVQLVETGGGLIQPGGSLRLSCAASEFIVSRNYMSWVRQAPGKGLEWVSLIYSGGSTYYADSVKGRFTISRDNSKNILYLQMNSLRAEDTAVYYCARDRGGISDYWGQGTLVTVSS
VL: DIQMTQSPSSLSASVGDRVTITCQASQDINKYLNWFQQKPGKAPKLLIYDASNLETGVPSRFSGSGSGTDFTFTISSLQPEDIATYYCQQYDNLPRTFGQGTKLEIKR
- RBD monomer bound at 50 nM (RU): 38.9 RU

B18: mAb15159 (antibody, V domains shown)
VH: EVQLVESGGGLVQPGGSLRLSCAASGITVSSNYMTWVRQAPGKGLEWVSLIYSGGSTFYADSVRGRFTISRDNSKNTLYLQMNSLRAEDTAVYYCARDLVVYGMDVWGQGTTVTVSS
VL: DIQLTQSPSSLSASVGDRVTITCRASQGISSYLAWYQQKPGKAPKLLIYAASTLQSGVPSRFSGSGSGTDFTLTISSLQPEDFATYYCQHLNSDPHTFGQGTKLEIKR
- RBD monomer bound at 50 nM (RU): 42 RU

B19: mAb15158 (antibody, V domains shown)
VH: EVQLVESGGGLVQPGGSLRLSCAASGFSFSSNWMSWVRQAPGKGLEWVGNINQDGSEKYYVDSVEGRFTISRDNAKKSLYLQMNSLRAEDTAVYYCARDLGVLWFGDFVDWGQGALVTVSS
VL: DIQMTQSPSSLSASVGDRVTITCRASQAISNSLAWYQQKPGKAPKLLLYAASTLESGVPSRFSGSGSGTDYTLTISSLQPEDFATYYCLQYYGSPRTFGQGTKVEIKR
- RBD monomer bound at 50 nM (RU): 44.3 RU

B20: mAb14234 (antibody, V domains shown)
VH: QVQLVESGGGVVQPGRSLRLSCAASGFTFSSYGIHWVRQAPGKGLEWVAIIWYDGSEKYYADSVKGRFTISRDNSKNTLFLQMNSLEAEDTAVYYCARGPDLLTGYYNYFYYGMDVWGQGTTVTVSS
VL: QSVLTQPPSVSGAPGQRVTISCTGSSSNIGIGYDVHWYQQLPGTVPKLLIYGNTNRPSGVPDRFSGSKSGTSASLAITGLQAEDEADYYCQSYDSSLSSYVFGTGTKVTVLG
- RBD monomer bound at 50 nM (RU): 162 RU

B21: mAb14286 (antibody, V domains shown)
VH: QVQLVQSGAEVKKPGASVKVSCKASGYTFTDYFIHWVRQAPGQGLEWMGWINPTSGGTNYAQKFRGRVTMTRDTSISTAYVELSRLRSDDTALYYCARDLPFYSDTKQFDYWGQGTLVTVSS
VL: QSALTQPASVSGYPGQSITISCTGTSSDVGGYNYVSWYQQHPGKAPKLMIFDVSNRPSGVSNRFSGSKSGNTASLTFSGLQAEDEADYYCSSYTSSSTLVFGGGTKLTVLG
- RBD monomer bound at 50 nM (RU): 169 RU

B22: mAb15160 (antibody, V domains shown)
VH: EVQLVESGGGLVQPGGSLRLSCSASGFTFSRYAMYWVRQAPGKGLEYVSAISSDGGSTYDADSVKGRFTISRANSKNTLYLQMSSLRAEDTAVYYCVKGLRELLYYYYGMDVWGQGTTVTVSS
VL: DIQMTQSPSSLSASVGDRVTITCRAGQSISSFLNWYQQKPGKAPKLLIYAASSLQSGVPSRFSGSGSGTDFTLTISSLQPEDFATYYCQQSYITPFTFGPGTKVDIKR
- RBD monomer bound at 50 nM (RU): 79.3 RU
